PubChem BioAssay AID624099 | ICCB-Longwood | 2012
In all, the deposit lists about 21,000 reagents; this is a part drawn at random. 497 of all reagents (2.4%) count as active. 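Higher z means weaker E2 silencing; only reporter increases were scored, and knock-downs that hurt cell survival may mask genuine repressor factors.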 Unmarked entries are inactive. Reagent sequences are not shown.

Screen: 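Human genes that papillomavirus E2 requires to repress the HPV18 LCR promoter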 (primary screen)
Cells: human C33A cervical carcinoma cells (HPV-negative) stably expressing BPV1 E2 and an HPV18 LCR luciferase reporter
Reagents: siRNA pool against human genes, 40 nM
Timing: 72 h
Read-out: 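HPV18 LCR reporter light per well, converted to plate-wise z-scores that exclude control wells, and averaged over triplicate plates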
Direction: mean z-score and z-score: higher = stronger reporter signal, weaker E2 silencing
Call rule: 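Mean z ≥ 2 together with z ≥ 2 in two or more of the three replicates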

The first 3 entries, ahead of the listing:
gene | mean z-score | z-score, replicate A | z-score, replicate B | z-score, replicate C
PPP6R3 (protein phosphatase 6 regulatory subunit 3) | -1.43 | -1.47 | -1.25 | -1.58
VN1R3 (vomeronasal 1 receptor 3) | 0.22 | 0.23 | -0.07 | 0.49
LOC392791 (retired record) | -0.25 | -0.16 | -0.35 | -0.23

Main list, from the start:
gene | mean z-score | z-score, replicate A | z-score, replicate B | z-score, replicate C
PPP6R3 (protein phosphatase 6 regulatory subunit 3) | -1.43 | -1.47 | -1.25 | -1.58
VN1R3 (vomeronasal 1 receptor 3) | 0.22 | 0.23 | -0.07 | 0.49
LOC392791 (retired record) | -0.25 | -0.16 | -0.35 | -0.23
DEFB126 (defensin beta 126) | -0.3 | 0.18 | -0.62 | -0.45
ZBTB48 (zinc finger and BTB domain containing 48) | 0.94 | 1.03 | 0.9 | 0.88
OSR1 (odd-skipped related transcription factor 1) | 0.98 | 0.85 | 0.88 | 1.23
C1orf56 (chromosome 1 open reading frame 56) | 1.12 | 0.77 | 1.14 | 1.44
CCZ1B (CCZ1B vacuolar protein trafficking and biogenesis associated) | -0.32 | -0.3 | -0.41 | -0.25
DDX39B (DExD-box helicase 39B) | -1.06 | -0.74 | -1.26 | -1.17
APOC2 (apolipoprotein C2) | -1.04 | -0.67 | -1.38 | -1.07
STMN3 (stathmin 3) | -0.37 | -0.21 | -0.45 | -0.43
LGI4 (leucine rich repeat LGI family member 4) | -2.06 | -2.1 | -2.02 | -2.07
OVCA2 (OVCA2 serine hydrolase domain containing) | -0.49 | -0.74 | -0.35 | -0.39
DUSP29 (dual specificity phosphatase 29) | -0.32 | -0.22 | -0.16 | -0.6
LINC00477 (long independently transcribed non-coding RNA 477) | -0.87 | -0.93 | -0.85 | -0.85
RPS16 (ribosomal protein S16) | -1.97 | -1.87 | -1.82 | -2.2
PARPBP (PARP1 binding protein) | -1.15 | -1.04 | -1.2 | -1.21
NRARP (NOTCH regulated ankyrin repeat protein) | -2.84 | -3.26 | -2.81 | -2.45
SAMM50 (SAMM50 sorting and assembly machinery component) | -0.32 | -0.4 | 0 | -0.57
DAOA-AS1 (DAOA antisense RNA 1) | 0.92 | 0.83 | 1.19 | 0.73
DSCR4 (Down syndrome critical region 4) | 2.79 (active) | 2.67 | 2.68 | 3.02
WDR27 (WD repeat domain 27) | 0.14 | 0.23 | 0.03 | 0.16
LEMD1 (LEM domain containing 1) | 1.7 | 1.56 | 1.8 | 1.73
LOC284898 | 0.53 | 0.35 | 0.33 | 0.92
BCO2 (beta-carotene oxygenase 2) | 1.08 | 0.57 | 1.33 | 1.33
ERCC2 (ERCC excision repair 2, TFIIH core complex helicase subunit) | 0.2 | 0.18 | 0.15 | 0.26
TP73 (tumor protein p73) | 1.27 | 1.19 | 1.31 | 1.31
WNT16 (Wnt family member 16) | 0.31 | 0.11 | 0.27 | 0.55
DHRS7C (dehydrogenase/reductase 7C) | 0.15 | 0.25 | -0.22 | 0.41
NMU (neuromedin U) | 0.31 | 0.18 | 0.46 | 0.29
HPS4 (HPS4 biogenesis of lysosomal organelles complex 3 subunit 2) | 0.17 | 0.17 | 0.11 | 0.22
ATG2A (autophagy related 2A) | 1.02 | 1.04 | 1.15 | 0.89
STK36 (serine/threonine kinase 36) | 0.91 | 1.09 | 1.03 | 0.63
MEGF10 (multiple EGF like domains 10) | 0.01 | 0.03 | 0.08 | -0.09
TXNL4B (thioredoxin like 4B) | 0.09 | 0.26 | 0.21 | -0.21
PDE6A (phosphodiesterase 6A) | 0.3 | 0.32 | 0.19 | 0.4
SEMA4B (semaphorin 4B) | -0.8 | -0.09 | -1.28 | -1.04
HAPSTR1 (HUWE1 associated protein modifying stress responses) | -1.52 | -1.57 | -1.48 | -1.49
CDKL1 (cyclin dependent kinase like 1) | 0.54 | 0.47 | 0.31 | 0.83
